Results reported in patent US20230256082A1.

Target: recombinant hACE2-Fc protein (GenScript) (human) (UniProt Q9BYF1)

## Recombinant SARS-CoV-2 spike protein containing only the ectodomain (S1S2) (from UniProt P0DTC2 14-1204) (other; other documents disagree on this pair)
  EC50: 0.14 µg/mL
